Results deposited as PubChem BioAssay AID1224833 (University of Georgia, 2016).
The whole screen tested about 12,000 reagents; shown is a random part of them. About 5,600 of them (46%) were called active. 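Active calls cover z-scores past 1 in both directions, so they include lowered as well as raised rotavirus replication.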

Aim: 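Human genes whose knock-down alters rotavirus replication in monkey cells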 (primary screen)
System: monkey MA104 kidney cells
Reagents: siRNA pool against human genes, 50 nM
Timing: 48 h knock-down before infection; read 24 h after infection
Challenge: infection with rotavirus strain RV3 two days after transfection; infectious dose for this stage not given
Read-out: 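z-score of rotavirus antigen signal per well, from a fluorescent immunoassay, relative to non-targeting control wells on the same plate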
Scale: z-score vs non-targeting control: higher = more rotavirus replication than with non-targeting control
Call rule: In these data the active calls have z-score vs non-targeting control at about -1 or lower, or at about 1 or higher
Calls: active = z-score beyond 1 either way; inactive = z-score within 1 of zero

| Target gene | z-score vs non-targeting control | outcome |
| --- | --- | --- |
| PDCL2 | -2.06 | active |
| FAM174C | 0.0785 | inactive |
| ACO1 | -1.32 | active |
| DEFB121 | 0.478 | inactive |
| NPBWR2 | -0.599 | inactive |
| SLC25A11 | 1.21 | active |
| GARIN2 | -0.806 | inactive |
| RTL9 | 0.848 | inactive |
| KRT9 | 1.08 | active |
| PTGIS | 0.613 | inactive |
| LGALS9 | 0.661 | inactive |
| HSPB2 | -0.851 | inactive |
| SNCB | -0.725 | inactive |
| DCPH1 | 0.575 | inactive |
| KRTAP4-7 | -0.504 | inactive |
| RBM22 | -0.911 | inactive |
| LINC03124 | 0.652 | inactive |
| NUS1 | -0.209 | inactive |
| ASZ1 | -0.159 | inactive |
| TMEM205 | 0.287 | inactive |
| DSG3 | 0.28 | inactive |
| NIPSNAP3A | -0.996 | inactive |
| SLC38A9 | -0.489 | inactive |
| RTCA | 1.81 | active |
| ANO6 | -1.99 | active |
| SOFU1 | -1.94 | active |
| DLEU7 | -0.0216 | inactive |
| SLC44A3 | -2.96 | active |
| SLC35F1 | 0.388 | inactive |
| EPS15L1 | -0.385 | inactive |
| CEPT1 | 0.644 | inactive |
| PSMB10 | 0.668 | inactive |
| NSRP1 | 1.01 | active |
| PGBD5 | -0.225 | inactive |
| TRMO | 1.5 | active |
| POU6F2 | -0.642 | inactive |
| PHIP | -1.1 | active |
| TBX1 | 0.891 | inactive |
| LRWD1 | -2.37 | active |
| HS3ST4 | -1.31 | active |
| ESR1 | -0.728 | inactive |
| SLC22A12 | -2.21 | active |
| SERPINI1 | -2.73 | active |
| CCDC82 | -2.24 | active |
| ZNF175 | -4.73 | active |
| ZNF613 | 0.0662 | inactive |
| OR2L8 | -0.483 | inactive |

8 entries from above, set out differently.
Target gene | z-score vs non-targeting control | outcome
SOFU1 | -1.94 | active
DLEU7 | -0.0216 | inactive
SLC44A3 | -2.96 | active
SLC35F1 | 0.388 | inactive
EPS15L1 | -0.385 | inactive
CEPT1 | 0.644 | inactive
PSMB10 | 0.668 | inactive
NSRP1 | 1.01 | active

The list goes on:
| Target gene | z-score vs non-targeting control | outcome |
| --- | --- | --- |
| CYP2R1 | -1.41 | active |
| LNPEP | 0.797 | inactive |
| CHIC2 | 0.12 | inactive |
| CIMAP1D | -0.258 | inactive |
| GBGT1 | -0.698 | inactive |
| SORBS2 | 0.0099 | inactive |
| UPK1A | -1.87 | active |
| FOXF1 | 1.42 | active |
| KRTAP6-3 | -0.251 | inactive |
| ARAP3 | -0.846 | inactive |
| DDI1 | -0.333 | inactive |
| KRIT1 | 0.648 | inactive |
| OTX2 | 1.59 | active |
| TMEM54 | -0.342 | inactive |
| FGD1 | -2.54 | active |
| CCT2 | -2.19 | active |
| SH3D19 | -0.786 | inactive |
| TMCO5A | 0.714 | inactive |
| TERF1 | -1.16 | active |
| KLHL14 | -0.234 | inactive |
| DYNC1LI2 | -1.66 | active |
| GABBR1 | -0.591 | inactive |
| CD53 | -1.3 | active |
| WDR48 | 1.46 | active |
| FGF19 | -0.912 | inactive |
| KDM3B | -1.06 | active |
| SPMIP5 | -1.67 | active |
| ALKBH7 | 0.0837 | inactive |
